# Source: patent publication US11179663B1, “Polyurethane-based materials” (Aviro LLC, priority 2021, dated 2021)
# System: COVID-19
# Test: coronavirus deactivation test after attachment to the surfaces, qPCR for genes indicative of COVID-19 activity
# Details: Example 3, foam coated with a single antiviral compound
substance,measurement,value
Benzalkonium chloride [BC],% Deactivated of that captured,30.1%
